Anti-infective test results gathered from many reports (values: NIAID ChemDB through PubChem).

Shared fields: enzyme or target tests

Rows are shuffled and stem from different studies.

structure	method	protein	dose	read-out	agent	strain or isolate	value
Clc1cccc(N2CCN(c3cncc(-c4csc5ccccc45)n3)CC2)c1	-	UL97 kinase	-	IC50	Cytomegalovirus	-	<100 µM
Cn1[nH]c2ccn(Cc3cccc(Cl)c3)c(=O)c2c(=O)c1=O	ELISA	Integrase	-	IC50	HIV-1	-	0.1–1 µM
O=C(O)c1cc2nc(-c3ccc(Oc4ccccc4)cc3)c(-c3ccccc3)cn2n1	-	RNA-dependent RNA polymerase	-	IC50	Hepatitis C virus	-	1–10 µM
Fc1cccc(C2CN(c3ccccn3)CCN2c2cnccn2)c1	-	UL97 kinase	10 µM	inhibition	Cytomegalovirus	-	>15%
O=C1c2c(O)c(=O)cc(CO)n2CCN1Cc1ccc(Cl)c(Cl)c1	ELISA	Integrase	-	IC50	HIV-1	-	0.01–0.1 µM
Cc1cccc(-c2cncc(N3CCN(c4cccc(C(F)(F)F)c4)CC3)n2)c1C	-	UL97 kinase	-	IC50	Cytomegalovirus	-	<100 µM
O=C(O)c1cnn2c(C3CCCCC3)c(-c3ccc(OCc4ccccc4)c(F)c3)cnc12	-	RNA-dependent RNA polymerase	-	IC50	Hepatitis C virus	-	<1 µM
COc1ccc(N2CCN(c3cncc(-c4cccc(C)c4C)n3)CC2)cc1OC	-	UL97 kinase	-	IC50	Cytomegalovirus	-	<100 µM
COC(=O)c1cnn2c(-c3cccc(Oc4ccccc4)c3)c(-c3ccccc3)cnc12	-	RNA-dependent RNA polymerase	-	IC50	Hepatitis C virus	-	>10 µM
O=c1c(-c2ccncc2)cn2ccn(Cc3cccc(Cl)c3)c(=O)c2c1O	ELISA	Integrase	-	IC50	HIV-1	-	<0.01 µM
COc1ccccc1-c1cc(-c2ccccc2)nc2cc(C(=O)O)nn12	-	RNA-dependent RNA polymerase	-	IC50	Hepatitis C virus	-	>10 µM
CSc1ccc(-c2cncc(N3CCN(c4ccc(F)cc4F)CC3)n2)cc1	-	UL97 kinase	-	IC50	Cytomegalovirus	-	<10 µM
COc1ccc(-c2cc(-c3ccc(C(F)(F)F)cc3)nc3cc(C(=O)O)nn23)cc1F	-	RNA-dependent RNA polymerase	-	IC50	Hepatitis C virus	-	>10 µM
FC(F)(F)c1ccc(N2CCN(c3cncc(-c4ccc5ccccc5c4)n3)CC2)cc1	-	UL97 kinase	-	IC50	Cytomegalovirus	-	<10 µM
O=C(Nc1cn2ccn(Cc3cccc(Cl)c3)c(=O)c2c(O)c1=O)c1cccs1	ELISA	Integrase	-	IC50	HIV-1	-	<0.01 µM
O=C(O)c1cc2nc(-c3cccc(Cl)c3)cc(-c3ccccc3Cl)n2n1	-	RNA-dependent RNA polymerase	-	IC50	Hepatitis C virus	-	>10 µM
COc1cccc2nc(N)nc(N)c12	-	Dihydrofolate reductase	-	IC50	Cryptosporidium parvum	TYPE 2	0.56 µM
O=C(O)c1cc(=O)c(O)c2n1CCN(Cc1ccc(Cl)c(Cl)c1)C2=O	ELISA	Integrase	-	IC50	HIV-1	-	0.01–0.1 µM
Fc1cccc(-c2cncc(N3CCN(c4ccccc4)CC3)n2)c1	-	UL97 kinase	-	IC50	Cytomegalovirus	-	<100 µM
CN(Cc1ccc2nc(N)nc(N)c2n1)c1cccc(Cl)c1	-	Dihydrofolate reductase	-	IC50	Cryptosporidium parvum	TYPE 1	0.024 µM
COC(=O)c1cc2nc(-c3ccccc3)cc(-c3ccccc3)n2n1	-	RNA-dependent RNA polymerase	-	IC50	Hepatitis C virus	-	>10 µM
COc1cc(CNc2ccc3nc(N)nc(N)c3c2Cl)cc(OC)c1OC	-	Dihydrofolate reductase	-	IC50	Cryptosporidium parvum	TYPE 2	0.027 µM
CC(C)(C)C(=O)c1cn2ccn(Cc3ccc(F)c(Cl)c3)c(=O)c2c(O)c1=O	ELISA	Integrase	-	IC50	HIV-1	-	<0.01 µM
Clc1ccc(COc2cccc(-c3cnc4c(-c5nn[nH]n5)cnn4c3C3CCCCC3)c2)cc1Cl	-	RNA-dependent RNA polymerase	-	IC50	Hepatitis C virus	-	1–10 µM
CC(C)C(O)c1cc(=O)c(O)c2n1CCN(Cc1ccc(Cl)c(Cl)c1)C2=O	ELISA	Integrase	-	IC50	HIV-1	-	0.01–0.1 µM
c1ccc(N2CCN(c3cncc(-c4cccs4)n3)CC2)nc1	-	UL97 kinase	-	IC50	Cytomegalovirus	-	<100 µM
Cc1cn2ccc(=O)c(O)c2c(=O)n1Cc1ccc(Cl)c(Cl)c1	ELISA	Integrase	-	IC50	HIV-1	-	0.01–0.1 µM
Nc1nc(N)c2nc(CN(c3ccccc3)c3ccccc3)cnc2n1	-	Dihydrofolate reductase	-	IC50	Cryptosporidium parvum	TYPE 2	>10 µM
CC(=O)c1ccc(N2CCN(c3cncc(-c4ccc(C(C)(C)C)cc4)n3)CC2)cc1	-	UL97 kinase	-	IC50	Cytomegalovirus	-	<100 µM
CCc1ccccc1-c1cn2ccn(Cc3cccc(Cl)c3)c(=O)c2c(O)c1=O	ELISA	Integrase	-	IC50	HIV-1	-	0.01–0.1 µM

Repeating the first 3 entries:

structure	method	protein	dose	read-out	agent	strain or isolate	value
Clc1cccc(N2CCN(c3cncc(-c4csc5ccccc45)n3)CC2)c1	-	UL97 kinase	-	IC50	Cytomegalovirus	-	<100 µM
Cn1[nH]c2ccn(Cc3cccc(Cl)c3)c(=O)c2c(=O)c1=O	ELISA	Integrase	-	IC50	HIV-1	-	0.1–1 µM
O=C(O)c1cc2nc(-c3ccc(Oc4ccccc4)cc3)c(-c3ccccc3)cn2n1	-	RNA-dependent RNA polymerase	-	IC50	Hepatitis C virus	-	1–10 µM

Percent inhibition refers to the dose given; in toxicity tests it is the harm to the cells. An empty or dashed field is not shown. ICn: concentration for n% inhibition. a–b is a range or a potency band.